# PubChem BioAssay AID651820 (National Center for Advancing Translational Sciences (NCATS), 2012)
# Only a part is listed here, and it is no random draw. Results filed as inconclusive are left out. Active and inactive are the calls of the source. Calls come from the whole dose curve; as a rule, active = well fitted inhibition curve with a large enough effect; inconclusive = small, poorly fitted or top-dose-only effect, or another doubt; inactive = no such curve, though single readings can be large or run the other way.
# Experiment: qHTS Assay for Inhibitors of Hepatitis C Virus (HCV)
# Settings: Huh7.5.1 HCVcc-Cre (HCVcc is cell-culture hepatitis C virus) infection, luciferase reporter, 44 h; series mostly up to 41.8 µM; activity change, negative = inhibition: at the top concentration
# Method in brief: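 HCVcc-Cre virus at an moi near 0.5 was added right after compound to cells cultured 4 h from seeding (1,000 cells/well). Luciferase activity was determined 44 h later, 15 min after substrate addition at RT.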
# % is set by controls: 0 for no effect and ±100 for the full control effect; potency is the fitted concentration of half-maximal effect.
Structure (SMILES),"activity change, negative = inhibition",Potency
Cc1ccc(N/C(=N/P(=O)(N2CCOCC2)N2CCOCC2)N2CCOCC2)cc1,inactive: 0.944%,–
COc1ccccc1OP(=O)(Nc1ccc(C)cn1)Oc1ccccc1OC,inactive: -5.48%,–
Cc1ccc(OP(=O)(Nc2nccs2)Oc2ccc(C)cc2)cc1,inactive: 12.1%,–
CN1CCCC(OC(=O)C(c2ccccc2)c2ccccc2)C1 (centres undefined),inactive: 7.54%,–
CCN(N=Nc1nonc1N)c1nonc1N,inactive: 4.3%,–
CC(=O)Nc1ccc([As](=O)(O)O)cc1,inactive: 6.53%,–
O=C(O)c1ccccc1[As](=O)(O)O,inactive: 11%,–
CCCC1OP(N)(=O)OCC1CC (centres undefined),inactive: 14.4%,–
O=P(Nc1nc2ccc(Cl)cc2s1)(c1ccccc1)c1ccccc1,inactive: -9.18%,–
Cc1cc(SC(NC(=O)c2ccc(F)cc2)C(Cl)(Cl)Cl)ncn1 (centres undefined),inactive: 1.43%,–
CCOP(=O)(Nc1ccccc1)OCC,inactive: 12%,–
Cc1ccc(NP(=O)(Oc2ccccc2F)Oc2ccccc2F)nc1,inactive: 6.3%,–
CC(C)(C)C(=O)NC(Sc1ccncn1)C(Cl)(Cl)Cl (centres undefined),inactive: 9.23%,–
O=[N+]([O-])c1ncn(CCn2ncnc2[N+](=O)[O-])n1,inactive: 18.1%,–
COC(=O)C1(C)COP(=O)(Nc2ccccc2)OC1 (centres undefined),inactive: 29.7%,–
O=[N+]([O-])c1cccc(NC2=NCC(CBr)S2)c1 (centres undefined),inactive: 1.73%,–
O=C(O)CNc1ccc([As](=O)(O)O)cc1,inactive: 6.93%,–
O=P1(N(CCCl)CCCl)OCCCS1 (centres undefined),inactive: 4.2%,–
O=C(Nc1cc([As](=O)(O)O)ccc1O)c1ccccc1,inactive: 5.73%,–
Nc1ccc([As](=O)(O)c2ccc(N)cc2)cc1,inactive: 16.7%,–
CCN(/C(=N/P(=O)(N1CCOCC1)N1CCOCC1)N1CCOCC1)c1ccc(OC)cc1,inactive: 5.6%,–
CC1=CC2OC3CC4OC(=O)/C=C/C=CC(C(C)O)OCC(O)C(C)CC(=O)OCC2(CC1O)C4(C)C31CO1 (centres undefined),–,active: 10 µM

Structure (SMILES),"activity change, negative = inhibition",Potency
CC(C)=N/N=C(\N)N[N+](=O)[O-],inactive: -0.846%,–
CN(C)C(=O)OCCc1n(C)cc[n+]1C,inactive: -2.78%,–
CC1CCN(C(=O)Oc2c(Cl)cc(Cl)c3cccnc23)CC1,inactive: -22.3%,–
COc1ccc(C2=NCC(CBr)S2)cc1 (centres undefined),inactive: 11%,–
O=[N+]([O-])c1cccc2n[nH]nc12,inactive: 1.74%,–
CC(=O)N1C2C3N(C(C)=O)C1C1N(C(C)=O)C(C(N1C(C)=O)N3C(C)=O)N2C(C)=O,inactive: 17.4%,–
Cc1ccc(NP(=O)(Oc2ccccc2)Oc2ccccc2)nc1,inactive: -4.89%,–
CC(C)C(=O)NC(Sc1ccccc1)C(Cl)(Cl)Cl (centres undefined),inactive: 27.5%,–
O=P(Nc1nccs1)(c1ccccc1)c1ccccc1,inactive: 10.4%,–
c1nnnn1CCn1cnnn1,inactive: -2.14%,–
O=[N+]([O-])c1ccc(O)c(/C=N/Nc2ccc([N+](=O)[O-])cc2[N+](=O)[O-])c1,inactive: 5.76%,–
O=[N+]([O-])c1ncn(CCn2cnc([N+](=O)[O-])n2)n1,inactive: -4.44%,–
O=[As](O)(c1ccccc1)c1ccc(O)cc1,inactive: 15.6%,–
C(Cc1nn[nH]n1)Cc1nn[nH]n1,inactive: 26.1%,–
Nc1ccc([As](=O)(O)c2ccc([N+](=O)[O-])cc2)cc1,inactive: 0.168%,–
COc1ccc(N)c([N+](=O)[O-])c1[N+](=O)[O-],inactive: 6.71%,–
O=P(Nc1ccccn1)(c1ccc(Br)cc1)c1ccc(Br)cc1,inactive: 5.89%,–
CN(C)C1(CNC(=O)c2ccc(Cl)c(S(N)(=O)=O)c2)CCCCC1,inactive: 26.8%,–
O=P(Nc1nc2ccccc2s1)(c1ccccc1)c1ccccc1,inactive: 8.97%,–
C[C@H]1OP(=O)(Oc2ccccc2)[C@H](O)[C@H](O)[C@H]1N=[N+]=[N-] (some centres undefined),inactive: 13.8%,–
COC(=O)c1cc2c(s1)N=C(c1ccccc1)N(C)P2(=O)N1CCOCC1 (centres undefined),inactive: -3.43%,–
CC(=O)NC(SC(=S)N(CC(C)C)CC(C)C)C(Cl)(Cl)Cl (centres undefined),inactive: 21.9%,–

Structure (SMILES),"activity change, negative = inhibition",Potency
O=C(OC1CN2CCC1CC2)c1ccccc1 (centres undefined),inactive: 28.3%,–
CCC(=O)N1C2C3N(C(=O)CC)C1C1N(C(=O)CC)C(C(N1C(=O)CC)N3C(=O)CC)N2C(=O)CC,inactive: 14.5%,–
CC(NC(=O)COC(=O)C(O)(c1ccccc1)c1ccccc1)c1ccccc1 (centres undefined),inactive: 11.5%,–
CN(C)C(=O)Oc1noc2ccccc12,inactive: 15.9%,–
CCNC(=S)/N=C(\N)N[N+](=O)[O-],inactive: -3.94%,–
O=C(NC1CCS(=O)(=O)C1)NP(=S)(Oc1ccccc1)Oc1ccccc1 (centres undefined),inactive: 8.38%,–
c1ccc(-c2nn[nH]n2)c(-c2nn[nH]n2)c1,inactive: 14.3%,–
Cc1ccc(NP(=O)(Oc2cccc(C)c2)Oc2cccc(C)c2)nc1,inactive: 12.7%,–
O=P1(N(CCCl)CCCl)OCCC2CCCCN21 (centres undefined),inactive: 10.8%,–
CC(=O)c1ccc(N2CC2c2ccncc2)cc1 (centres undefined),inactive: 3.72%,–
COC(=O)C1(C)COP(=O)(NCc2ccccc2)OC1 (centres undefined),inactive: 27.8%,–
Cc1ccccc1CN(C)C(=O)COC(=O)C(O)(c1ccccc1)c1ccccc1,inactive: 8.22%,–
C[C@H]1OP(=O)(Oc2ccccc2)C[C@@H]2O[C@@H]21 (some centres undefined),inactive: 2.23%,–
C[C@@H]1C=CCP(=O)(Oc2ccccc2)O1 (some centres undefined),inactive: 43.9%,–
CC(=O)Nc1ccc([As](=O)(O)O)c(O)c1,inactive: 16.3%,–
CC(=O)Nc1ccc(Oc2c([N+](=O)[O-])cc([N+](=O)[O-])cc2[N+](=O)[O-])cc1,inactive: 2.49%,–
O=P1(Nc2nc3ccc(Cl)cc3s2)COc2ccccc2O1 (centres undefined),inactive: 0.0627%,–
CCOc1ccc(C2=NCC(CBr)S2)cc1 (centres undefined),inactive: 2.65%,–
CCc1cc(O)c([N+](=O)[O-])c(C)c1[N+](=O)[O-],inactive: 8.85%,–
CC(C)(C)C(=O)NC(Sc1ccccc1)C(Cl)(Cl)Cl (centres undefined),inactive: 16.3%,–
